PubChem BioAssay AID624099 – ICCB-Longwood, 2012
Here is a random part of about 21,000 deposited reagents. In the full data, 497 (2.4%) were called active. 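Higher z means weaker E2 silencing; only reporter increases were scored, and knock-downs that hurt cell survival may mask genuine repressor factors.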 The numbers tell different reagents against one gene apart.

- Assay: 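Knock-downs relieving repression by E2 of an HPV18 LCR luciferase reporter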 (primary screen)
- Cell system: human C33A cervical carcinoma cells (HPV-negative) stably expressing BPV1 E2 and an HPV18 LCR luciferase reporter
- Knock-down reagent: siRNA pool against human genes, 40 nM
- Time to read-out: 72 h
- Measured: 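Per-well luciferase luminescence, z-scored on each plate against the plate mean and SD with control wells left out, then averaged across three replicate plates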
- Scale: mean z-score and z-score: higher = stronger reporter signal, weaker E2 silencing
- Active means: 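Mean z ≥ 2 together with z ≥ 2 in two or more of the three replicates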

no.	gene	reagent	mean z-score	z-score, replicate A	z-score, replicate B	z-score, replicate C	outcome
1	KIAA1210 (GeneID 57481)	1	-0.92	-0.89	-1.04	-0.82	inactive
2	LINC00158 (GeneID 54072)	1	0.58	0.81	0.6	0.32	inactive
3	MAGEB4 (GeneID 4115)	1	0.07	-0.34	0.16	0.4	inactive
4	DAGLB (GeneID 221955)	1	0.04	-0.11	-0.01	0.23	inactive
5	NAA11 (GeneID 84779)	1	-0.55	-0.69	-0.43	-0.53	inactive
6	RNF113A (GeneID 7737)	1	-0.29	-0.16	-0.58	-0.12	inactive
7	BNIP3 (GeneID 664)	1	0.23	-0.08	0.37	0.39	inactive
8	NLN (GeneID 57486)	1	0.26	0.25	0.06	0.47	inactive
9	KCTD7 (GeneID 154881)	1	-0.61	-0.54	-0.53	-0.77	inactive
10	ERO1A (GeneID 30001)	1	-0.38	-0.43	-0.34	-0.37	inactive
11	METTL16 (GeneID 79066)	1	-1.55	-1.49	-1.59	-1.59	inactive
12	STK39 (GeneID 27347)	1	-0.29	-0.37	-0.42	-0.08	inactive
13	IFNA8 (GeneID 3445)	1	-0.82	-0.83	-0.83	-0.8	inactive
14	LTK (GeneID 4058)	1	-0.35	-0.54	-0.15	-0.36	inactive
15	LOC388206 (retired record) (GeneID 388206)	1	0.04	-0.08	-0.02	0.22	inactive
16	GOLGA7 (GeneID 51125)	1	-0.87	-0.63	-1.07	-0.92	inactive
17	HSPD1 (GeneID 3329)	1	-0.52	0.01	-0.84	-0.74	inactive
18	PTX3 (GeneID 5806)	1	0.29	0.28	0.42	0.17	inactive
19	STMN1 (GeneID 3925)	1	-0.33	-0.43	-0.2	-0.38	inactive
20	STMN1 (GeneID 3925)	2	-0.25	-0.15	-0.34	-0.25	inactive
21	STARD10 (GeneID 10809)	1	-1.35	-1.05	-1.18	-1.81	inactive
22	MRPL44 (GeneID 65080)	1	-0.42	-0.19	-0.39	-0.67	inactive
23	PKD1P1 (GeneID 339044)	1	0.66	0.45	0.73	0.81	inactive
24	PCBP1 (GeneID 5093)	1	-0.04	0.14	-0.28	0.01	inactive
25	ATP9A (GeneID 10079)	1	-0.86	-0.83	-0.76	-1	inactive
26	PPP1R3B (GeneID 79660)	1	-1.04	-0.96	-1.05	-1.11	inactive
27	ADCY2 (GeneID 108)	1	1.15	1.23	1.33	0.9	inactive
28	DNAJC17 (GeneID 55192)	1	2.41	2.41	2.34	2.49	active
29	LOC128939 (retired record) (GeneID 128939)	1	0.03	0.02	0.07	0	inactive

Next part (2 carried over from the part before).
no.	gene	reagent	mean z-score	z-score, replicate A	z-score, replicate B	z-score, replicate C	outcome
28	DNAJC17 (GeneID 55192)	1	2.41	2.41	2.34	2.49	active
29	LOC128939 (retired record) (GeneID 128939)	1	0.03	0.02	0.07	0	inactive
30	RPP38-DT (GeneID 221060)	1	-1.37	-1.19	-1.54	-1.36	inactive
31	DTWD1 (GeneID 56986)	1	-0.26	-0.46	-0.16	-0.17	inactive
32	ATP6V0D1 (GeneID 9114)	1	1.57	1.55	1.73	1.43	inactive
33	TMPRSS9 (GeneID 360200)	1	-0.18	0.16	-0.46	-0.23	inactive
34	SRRD (GeneID 402055)	1	-0.07	0.03	0.09	-0.33	inactive
35	LOC390426 (retired record) (GeneID 390426)	1	-0.69	-0.66	-0.6	-0.81	inactive
36	AEBP1 (GeneID 165)	1	-0.59	-0.43	-0.58	-0.75	inactive
37	GRIN1 (GeneID 2902)	1	-0.45	-0.39	-0.4	-0.55	inactive
38	LOC401078 (retired record) (GeneID 401078)	1	0.24	0.56	0.08	0.09	inactive
39	REV3L (GeneID 5980)	1	-1	-1.34	-1.02	-0.64	inactive
40	NR0B1 (GeneID 190)	1	0.39	0.32	0.42	0.43	inactive
41	PABPC5 (GeneID 140886)	1	-0.73	-0.87	-1.28	-0.05	inactive
42	BTNL2 (GeneID 56244)	1	1.34	1.57	1.25	1.22	inactive
43	SNAP47 (GeneID 116841)	1	0.79	0.79	0.49	1.1	inactive
44	LOC388097 (retired record) (GeneID 388097)	1	-1.29	-1.67	-1.01	-1.19	inactive
45	PARP15 (GeneID 165631)	1	-0.39	-0.52	-0.55	-0.1	inactive
46	PRDM5 (GeneID 11107)	1	-0.82	-1.09	-0.8	-0.56	inactive
47	WNT10B (GeneID 7480)	1	0.76	0.6	0.46	1.24	inactive
48	NECAP2 (GeneID 55707)	1	2.68	2.9	2.61	2.53	active
49	LPO (GeneID 4025)	1	1.15	1.59	0.76	1.11	inactive
50	SERPINE2 (GeneID 5270)	1	0.4	0.58	0.26	0.35	inactive
51	OR6K6 (GeneID 128371)	1	0.14	-0.11	0.33	0.19	inactive
52	MYO15A (GeneID 51168)	1	0.08	0.21	0.09	-0.05	inactive
53	PFN3 (GeneID 345456)	1	0.18	0.17	0	0.37	inactive
54	RPL7A (GeneID 6130)	1	-1.94	-1.94	-1.89	-1.98	inactive
55	F2R (GeneID 2149)	1	0.49	1.02	0.23	0.23	inactive
56	CDO1 (GeneID 1036)	1	2.77	2.51	2.71	3.08	active
57	KLRC1 (GeneID 3821)	1	-1.02	-1.27	-1.11	-0.69	inactive
